# Data: US20240002434A1, “METHODS OF INACTIVATING VIRAL CONTAMINANTS” (ICHNOS SCIENCES SA, priority 2017, published 2024)
# Experiment: Cell based functional assay of BEAT®2
# Method: Some samples of the ones described above, were selected to be tested by surface plasmon resonance (Table 37). […] In addition, cell based functional assay were also performed to directly verify the impact of high pH on BEAT®2 molecule activity.
# The half maximal effective concentration (EC50) were determined based on the dose-response curves. The EC50 values obtained allowed to determine the relative potency of each sample tacking as reference the sample with high pH incubation time equal to zero.
molecule,measurement,setting,value
BEAT ®2 (protein) chain 1: DIQMTQSPSSLSASVGDRVTITCQASQDVITSVAWYQQKPGKAPKLLIYSASYRYTGVPSRFSGSGSGTDFTFTISSLQPEDIATYYCQQHYTIPLTFGQGTKLEIKRTVAAPSVFIFPPSDEQLKSGTASVVCLLNNFYPREAKVQWKVDNALQSGNSQESVTEQDSKDSTYSLSSTLTLSKADYEKHKVYACEVTHQGLSSPVTKSFNRGEC chain 2: QVTLKESGPTLVKPTQTLTLTCTFSGLSLSTSGKGVGWIRQPPGKALEWLAHIWWDDDKRYNPALKSRLTITKDTSKNQVVLTMTNMDPVDTATYYCARIELGRSYVMDYWGQGTLVTVSSASTKGPSVFPLAPSSKSTSGGTAALGCLVKDYFPEPVTVSWNSGALTSGVHTFPAVLQSSGLYSLSSVVTVPSSSLGTQTYICNVNHKPSNTKVDKKVEPKSCDKTHTCPPCPAPEAAGGPSVFLFPPKPKDTLMISRTPEVTCVVVDVSHEDPEVQFKWYVDGVEVHNAKTKPREEQYNSTFRVVSVLTVLHQDWLNGKEYKCKVSNKALPAPIEKTISKTKGQPREPAVYTLPPSREEMTKNQVKLVCLVTGFYPSDIAVEWESSGQPENNYYTTPPMLDSDGSFSLVSWLNVDKSRWQQGNIFSCSVMHEALHNRFTQKSLSLSPG chain 3: EVQLVESGGGLVQPGGSLRLSCAASGFTFNTYAMNWVRQAPGKGLEWVARIRSKYNNYATYYADSVKGRFTISRDDSKNTLYLQMNSLRAEDTAVYYCVRHGNFGNSYVSYFAYWGQGTTVTVSSGGGGSGGGGSGGGGSEIVVTQSPATLSVSPGERATLSCRSSTGAVTESNYANWVQEKPGQAFRGLIGGANKRAPGVPARFSGSLSGDEATLTISSLQSEDFAVYYCALFYSNTWVFGQGTKLEIKGGGGTDKTHTCPPCPAPEAAGGPSVFLFPPKPKDTLMISRTPEVTCVVVDVSHEDPEVKFNWYVDGVEVHNAKTKPREEQYNSTYRVVSVLTVLHQDWLNGKEYKCKVSNKALPAPIEKTISKAKGQPREPEVATFPPSRDELTKNQVTLVCLVTGFYPSDIAVEWESNGQPENNYKTDPPLLESQGSFALSSRLRVDKSRWQQGNVFSCSVMHEALHNHYTQKSLSLSPG,Relative potency (%),PA Eluate (reference),100%
same,Relative potency (%),"high pH treatment, t0",114%
same,Relative potency (%),"high pH treatment, t1 h",71.7%
same,Relative potency (%),"high pH treatment, t2 h",88.5%
